PSTVd loop 6 mutant pool in Nicotiana benthamiana

PSTVd intermediate strain, loop 6: wild type UGACCGCGAG, pool pattern UNNNCGNNNG; upper and lower strand joined, each 5' to 3', the first 5 letters being the upper strand, closing pairs included.

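Three N. benthamiana plants were inoculated with the whole mutant pool. Samples came from the inoculated region at 5 days, the leaf margin at 10 and upper systemic leaves at 12.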

Values are reads per thousand in the sample; higher means more abundant, 0 means not found.
Each site shows the three plants.
"Pool" is the share in the plasmid pool used as inoculum, on the same scale.
The inoculated region was read from the minus strand, the other sites from the plus strand.
IR is the inoculated region, LM the leaf margin, Sys the systemic leaves.
Sequences that differ at fixed positions probably stem from PCR or sequencing errors, and defective variants can be carried along by functional ones.

* UGUGCGGCGG (pool 0.275): IR 0.139 / 0.108 / 0.0738; LM 0 / 0 / 0; Sys 0 / 0 / 0
* CGACCGAGCG (pool 0.0131): IR 0.0174 / 0 / 0.0184; LM 0 / 0 / 0; Sys 0 / 0 / 0
* UCGUCGCGGG (pool 0.288): IR 0.209 / 0.144 / 0.111; LM 0 / 0 / 0; Sys 0 / 0 / 0
* UUAUCGUGUG (pool 0.366): IR 0.122 / 0.0898 / 0.0922; LM 0 / 0 / 0; Sys 0 / 0 / 0
* UCUCCGAGGG (pool 0.131): IR 0.0869 / 0.0898 / 0.0369; LM 0.0276 / 0 / 0; Sys 0 / 0 / 0.0205
* UUACCGAGGG (pool 0.222): IR 0.156 / 0.216 / 0.0738; LM 0 / 0 / 0.0232; Sys 0 / 0 / 0
* UCUACGUUGG (pool 0.235): IR 0.122 / 0.0539 / 0.129; LM 0 / 0 / 0; Sys 0 / 0 / 0
* UCGCCGCCGG (pool 0.248): IR 0.0869 / 0.0898 / 0.129; LM 0 / 0 / 0; Sys 0 / 0 / 0
* UUUGCGCAGG (pool 0.248): IR 0.0869 / 0.0539 / 0.148; LM 0 / 0 / 0; Sys 0 / 0 / 0
* UCGUCGACUG (pool 0.196): IR 0.104 / 0 / 0.0184; LM 0 / 0 / 0; Sys 0 / 0 / 0
* UCUUCGGUCG (pool 0.288): IR 0.174 / 0.108 / 0.0922; LM 0 / 0 / 0; Sys 0 / 0 / 0
* UUGUCGUACG (pool 0.209): IR 0.139 / 0.0719 / 0.111; LM 0.0276 / 0 / 0.0232; Sys 0 / 0 / 0
* UUAGCGUAUG (pool 0.431): IR 0.0695 / 0.0359 / 0.0738; LM 0.497 / 0.0252 / 0; Sys 0 / 0 / 0.0205
* UACACGACAG (pool 0.131): IR 0.104 / 0.0898 / 0.0553; LM 0 / 0 / 0; Sys 0 / 0 / 0
* UAUACGCCUG (pool 0.288): IR 0.0695 / 0.0898 / 0.148; LM 0 / 0 / 0.0696; Sys 0 / 0 / 0
* UCUCCGGCUG (pool 0.144): IR 0.122 / 0.0180 / 0.0922; LM 0 / 0 / 0; Sys 0 / 0 / 0
* UCGACGAUCG (pool 0.261): IR 0.0695 / 0.108 / 0.0369; LM 0 / 0 / 0.0232; Sys 0 / 0 / 0
* UGUACGAGGG (pool 0.248): IR 0.122 / 0.0719 / 0.0922; LM 0.0276 / 0 / 0; Sys 0 / 0 / 0
* UGUGCGUGUG (pool 0.301): IR 0.104 / 0.162 / 0.0738; LM 0 / 0 / 0.0232; Sys 0 / 0 / 0
* UUCGCGCGCG (pool 0.183): IR 0.0695 / 0.126 / 0.0738; LM 0 / 0 / 0; Sys 0 / 0 / 0
* UCGUCGAACG (pool 0.471): IR 0.0695 / 0.0719 / 0.0553; LM 0 / 0 / 0.0464; Sys 0 / 0 / 0
* GGACCGAUAG (pool 0.0131): IR 0.0348 / 0.0180 / 0.0184; LM 0.0276 / 0 / 0.0696; Sys 0 / 0 / 0
* UUGUCGGUUG (pool 0.209): IR 0.104 / 0.144 / 0.0922; LM 0 / 0 / 0.0232; Sys 0 / 0 / 0
* UCAUCGGAGA (pool 0.0131): IR 0 / 0 / 0; LM 0 / 0 / 0; Sys 0 / 0 / 0
* UCUGCGUUGG (pool 0.418): IR 0.156 / 0.0359 / 0.0553; LM 0 / 0 / 0; Sys 0 / 0 / 0
* UCGACGCCUG (pool 0.209): IR 0.0869 / 0.180 / 0.0369; LM 0.0276 / 0 / 0.0232; Sys 0 / 0 / 0
* UCUACGUGCG (pool 0.327): IR 0.174 / 0.144 / 0.111; LM 0.0276 / 0 / 0; Sys 0 / 0 / 0
* UACGCGGACG (pool 0.261): IR 0.122 / 0.0539 / 0.0369; LM 0 / 0 / 0; Sys 0 / 0 / 0
* UCCACGUCGG (pool 0.196): IR 0.0521 / 0.0898 / 0.0553; LM 0.0276 / 0 / 0; Sys 0 / 0 / 0
* UCCACGGGGG (pool 0.105): IR 0.0695 / 0.0539 / 0.0738; LM 0 / 0 / 0; Sys 0 / 0 / 0
* UAGGCGGCGG (pool 0.248): IR 0.174 / 0.108 / 0.0922; LM 0 / 0 / 0; Sys 0 / 0 / 0
* UCGACGCGGG (pool 0.144): IR 0.0695 / 0.108 / 0.0553; LM 0.0276 / 0 / 0; Sys 0 / 0 / 0
* UAUACGAUUG (pool 0.588): IR 0.0869 / 0.0898 / 0.0553; LM 0 / 0 / 0; Sys 0 / 0 / 0
* UCAUCGUCGG (pool 0.157): IR 0.174 / 0.0719 / 0.129; LM 0 / 0 / 0; Sys 0 / 0 / 0
* UGAACGACCG (pool 0.196): IR 0.139 / 0.269 / 0.166; LM 0 / 0 / 0; Sys 0 / 0 / 0

A selection of 5 entries from above:

* UCGCCGCCGG (pool 0.248) -> IR 0.0869 / 0.0898 / 0.129; LM 0 / 0 / 0; Sys 0 / 0 / 0
* UCUUCGGUCG (pool 0.288) -> IR 0.174 / 0.108 / 0.0922; LM 0 / 0 / 0; Sys 0 / 0 / 0
* UUAUCGUGUG (pool 0.366) -> IR 0.122 / 0.0898 / 0.0922; LM 0 / 0 / 0; Sys 0 / 0 / 0
* UAGGCGGCGG (pool 0.248) -> IR 0.174 / 0.108 / 0.0922; LM 0 / 0 / 0; Sys 0 / 0 / 0
* UGUGCGGCGG (pool 0.275) -> IR 0.139 / 0.108 / 0.0738; LM 0 / 0 / 0; Sys 0 / 0 / 0

Wild type was 20.7 per thousand in the pool and the most common sequence in every sample (inoculated region 195, 198, 203; leaf margin 629, 591, 734; systemic leaves 942, 870, 868).
With 36,220-57,551 reads a sample, very low values are single reads.

From the data files of Wu et al. 2024, doi:10.1371/journal.ppat.1012142.